Reference: publication PMC8989888, “Development of optimized drug-like small molecule inhibitors of the SARS-CoV-2 3CL protease for treatment of COVID-19” (Nature Communications, 2022)

The chains behind the UniProt entries cited, without tags or fusion partners. Residues count along the entry.
UniProt K9N7C7, 3248-3553 limits assumed: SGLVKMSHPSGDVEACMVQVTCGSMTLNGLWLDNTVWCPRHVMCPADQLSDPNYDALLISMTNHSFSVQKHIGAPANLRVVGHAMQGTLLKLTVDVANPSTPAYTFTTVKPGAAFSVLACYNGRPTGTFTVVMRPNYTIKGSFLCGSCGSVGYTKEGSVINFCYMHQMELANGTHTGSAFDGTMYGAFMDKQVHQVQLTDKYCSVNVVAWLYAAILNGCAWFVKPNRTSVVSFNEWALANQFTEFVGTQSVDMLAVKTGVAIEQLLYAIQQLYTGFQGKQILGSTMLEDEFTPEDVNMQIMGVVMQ

Key:
[1] = target: SARS-CoV 3CL protease (Severe acute respiratory syndrome coronavirus, UniProt P0C6X7); assay: Mammalian cell-based 3CL protease inhibitor assay (HEK293T, crystal violet): SARS-CoV; settings: read-out: SARS-CoV 3CLpro EC50; 293T cells, rescue of growth
[2] = target: MERS-CoV 3CL protease (Middle East respiratory syndrome-related coronavirus, UniProt K9N7C7); assay: Mammalian cell-based 3CL protease inhibitor assay (HEK293T, crystal violet): MERS-CoV; settings: read-out: MERS-CoV 3CLpro EC50; 293T cells, rescue of growth

Row | Structure (SMILES) | EC50 [1] [nM] | EC50 [2] [nM]
1 | CC(C)C[C@H](NC(=O)OCc1cccc(Cl)c1)C(=O)N[C@@H](C[C@@H]1CCNC1=O)C(O)S(=O)(=O)O (stereo partly drawn) [EB46] | 1500 | 2700
2 | CC(C)C[C@H](NC(=O)OCc1ccccc1Cl)C(=O)N[C@@H](C[C@@H]1CCNC1=O)C(O)S(=O)(=O)O (stereo partly drawn) [EB54] | 7800 | 3200
3 | CC(C)C[C@H](NC(=O)OCc1ccc2ccccc2c1)C(=O)N[C@@H](C[C@@H]1CCNC1=O)C(O)S(=O)(=O)O (stereo partly drawn) [EB56] | 2400 | 1900
